Data from article PMC7077220.
Construct, isoform or probe ends are uncertain for at least one entry. At least one verdict was read from the data and is not stated in words by the source.

Tested on: Sumo-nsp10
Assay: EMSA
Conditions: 2 mM Mg2+; recombinant protein; protein details: N-terminal SUMO; label: 3' FAM on top strand

TTTTTTTTTTCGAGCACCGCTGCGGCTG / GGTGCAGCCGCAGCGGTGCTCG [EMSA partially dsDNA]
binding result: binds
